The target of this experiment is Human immunodeficiency virus type 1 protease (Human immunodeficiency virus 1, UniProt Q72874). The experiment can be described thus: Binding affinity against HIV-1 protease.
`O=c1c2c(oc(O)c1[C@@H](c1cccc(NS(=O)(=O)c3ccccc3)c1)C1CC1)CCCCCC2` gave a Ki of 7.6 nM.
Under `O=c1c2c(oc(O)c1[C@H](c1cccc(NS(=O)(=O)c3ccccc3)c1)C1CC1)CCCCCC2` stands 3.2 nM; under `O=c1c2c(oc(O)c1C(c1cccc(NS(=O)(=O)c3ccccc3)c1)C1CC1)CCCCCC2` (stereo not drawn), 3.2 nM.

These data come from ChEMBL document CHEMBL1129987, “Structure-based design of nonpeptidic HIV protease inhibitors: the sulfonamide-substituted cyclooctylpyramones” (J Med Chem, 1997).
